Pooled drug test results. Numbers come from NIAID ChemDB, via PubChem.

Common to all: enzyme or target tests; organism: Pneumocystis carinii

Inhibition is in % at the dose shown (toxicity tests: loss of growth or viability).

structure | target | measure | dose | result
CN(Cc1cnc2nc(N)nc(N)c2n1)c1ccc(C(=O)N[C@H](CCCCN)C(=O)O)cc1 | DHFR | IC50 |  | >8 µM
COc1cc(Cc2cnc(N)nc2N)cc(OCCC(=O)NC(CC(=O)O)C(=O)O)c1Br | DHFR | IC50 |  | 2 µM
CC(CCCN)Nc1cc(O)c(O)c2cccnc12 | Dihydroorotate dehydrogenase | inhibition | 100 µM | 0%
CCOc1cc(Cc2cnc(N)nc2N)cc(OCC)c1-n1cccc1 | DHFR | IC50 |  | 2.4 µM
Nc1ccc(S(=O)(=O)Nc2ccc(C(=O)O)cc2)cc1 | DHPS | IC50 |  | 0.26 µM
CN(Cc1cnc2nc(N)nc(N)c2n1)c1ccc(C(=O)N[C@@H](CCC(=O)N[C@@H](CCC(=O)N[C@@H](CCC(=O)N[C@@H](CCC(=O)O)C(=O)O)C(=O)O)C(=O)O)C(=O)O)cc1 | DHFR | IC50 |  | 0.000035 µM
C=C(C)c1c(OC)cc(Cc2cnc(N)nc2N)cc1OC | DHFR | IC50 |  | 24 µM
CC1(C)N=C(N)N=C(N)N1c1ccc(N)cc1 | DHFR | IC50 |  | 70.9 µM
Nc1ccc(S(=O)(=O)c2ccc(N)cc2)cc1 | DHPS | IC50 |  | 0.15 µM
CN(Cc1cnc2nc(N)nc(N)c2n1)c1c(F)cc(C(=O)N[C@H](CCC(=O)O)C(=O)O)cc1F | DHFR | IC50 |  | 0.00051 µM
COc1c(SC)cc(Cc2cnc(N)nc2N)cc1S(C)=O | DHFR | IC50 |  | 18 µM
Nc1ccc(S(=O)(=O)Nc2ccc(Cl)nn2)cc1 | DHPS | inhibition | 0.05 µM | 29.5%
COc1cc(Cc2cnc(N)nc2N)cc(OCCNS(=O)(=O)c2ccc(NC(C)=O)cc2)c1Br | DHFR | IC50 |  | 3.7 µM
Nc1ccc(S(=O)(=O)Nc2cccc(NS(=O)(=O)c3ccc(N)cc3)c2)cc1 | DHPS | IC50 |  | 0.18 µM
Cc1cc2c(cc1C)-c1c(N)nc(N)nc1CC2 | DHFR | IC50 |  | 0.59 µM

Repeating the first 2 entries:

CN(Cc1cnc2nc(N)nc(N)c2n1)c1ccc(C(=O)N[C@H](CCCCN)C(=O)O)cc1 ; target: DHFR ; measure: IC50 ; result: >8 µM
COc1cc(Cc2cnc(N)nc2N)cc(OCCC(=O)NC(CC(=O)O)C(=O)O)c1Br ; target: DHFR ; measure: IC50 ; result: 2 µM

An empty or dashed field is not shown. Neighbouring rows are from separate reports. ICn: concentration for n% inhibition.